Source: publication PMC8224886
The exact form of at least one protein or probe is not confirmed. Where cells or extracts were used, other partners may take part.

Sequences of proteins named here, by UniProt entry; tags and fusion partners are left off.
UniProt P40763, whole entry: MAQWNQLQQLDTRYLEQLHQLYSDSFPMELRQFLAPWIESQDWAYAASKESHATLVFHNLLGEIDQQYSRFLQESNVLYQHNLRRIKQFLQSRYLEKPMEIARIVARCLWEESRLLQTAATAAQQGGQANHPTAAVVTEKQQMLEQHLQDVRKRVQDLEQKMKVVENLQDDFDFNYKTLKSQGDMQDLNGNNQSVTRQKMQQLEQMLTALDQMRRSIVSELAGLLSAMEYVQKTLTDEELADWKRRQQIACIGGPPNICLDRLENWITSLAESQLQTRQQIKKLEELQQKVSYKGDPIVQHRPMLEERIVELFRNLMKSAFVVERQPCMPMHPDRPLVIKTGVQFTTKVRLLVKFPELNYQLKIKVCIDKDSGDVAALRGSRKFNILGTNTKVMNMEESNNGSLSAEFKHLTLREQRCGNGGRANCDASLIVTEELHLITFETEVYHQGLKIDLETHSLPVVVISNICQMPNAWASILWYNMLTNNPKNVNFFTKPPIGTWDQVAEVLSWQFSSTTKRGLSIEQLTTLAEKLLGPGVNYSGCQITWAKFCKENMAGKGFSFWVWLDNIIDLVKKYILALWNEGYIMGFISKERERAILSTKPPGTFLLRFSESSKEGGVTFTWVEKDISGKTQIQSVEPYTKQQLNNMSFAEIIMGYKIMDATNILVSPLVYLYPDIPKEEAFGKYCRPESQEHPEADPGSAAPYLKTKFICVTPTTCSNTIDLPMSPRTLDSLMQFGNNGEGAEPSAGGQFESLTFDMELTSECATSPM

Tests used:
[1] = target: endogenous STAT3 (OSM-activated) (UniProt P40763); assay: EMSA; details: protein in an extract
[2] = target: STAT3-mCherry (WT, OSM-activated) (UniProt P40763); assay: EMSA; details: protein in a lysate after overexpression, protein details: mCherry

Measured: binding result

AGCTTCATTTCCCGTAAATCCCTA (double strand) [m67 probe]
binds: [1] | [1]; label: digoxigenin | [2] | [2]; label: digoxigenin
